In one assay the target is HA A/VN/1194/04 (H5) (influenza A virus H5 A/VN/1194/04). As to the kind of experiment: cell-based or functional assay.
The target of assay [1] is H7N1 A/ck/FPV/Ro/34 HA on pseudotyped virus (influenza A virus H7N1 …, UniProt P03459 19-563). Put plainly: cell-based or functional assay.
Assay [2] deals with H7N7 A/Netherlands/219/03 HA protein (influenza A virus H7N7 …). As to the kind of experiment: ELISA on coated HA.
For assay [3], the target named is H5N1 A/Viet Nam/1203/04 HA protein (influenza A virus H5N1 A/Viet …). As to the kind of experiment: ELISA on coated HA. On the technique in general: In an ELISA, binding on a coated surface is turned into a signal by an enzyme label.
For assay [4], the target named is H9N2 A/Hong Kong/1073/99 HA protein (influenza A virus H9N2 A/Hong …). Put plainly: ELISA on coated HA.
Assay [5] concerns the target H10N4 A/mink/Sweded/3900/84 HA protein (influenza A virus H10N4 …). Put plainly: ELISA on coated HA.
The target in assay [6] is H8N4 A/Alberta/357/84 HA protein (influenza A virus H8N4 A/Alberta/357/84). As to the kind of experiment: ELISA on coated HA.
Assay [7] concerns the target H6N5 A/shearwater/Australia/1/72 HA protein (influenza A virus H6N5 …). Put plainly: ELISA on coated HA.
Assay [8] deals with H5N1 A/Viet Nam/1/05 HA protein (influenza A virus H5N1 A/Viet Nam/1/05). As to the kind of experiment: ELISA on coated HA.
Assay [9] has as its target H7N3 A/Canada/444/04 HA protein (influenza A virus H7N3 A/Canada/444/04). Put plainly: ELISA on coated HA.

B1: FI6 variant 4 (antibody, V domains shown)
VH: QVQLVQSGGGVVQPGRSLRLSCVASGFTFSTYAMHWVRQAPGRGLEWVAVISYDANYKYYADSVKGRFSISRDNSQNTLHLEMNTLRTEDTALYYCAKDSQLRSLLYFEWLSQGYFEPWGQGTLVTVTS
VL: DIVMTQSPDSLAVSLGERATINCKSSQSVTFNYKNYLAWYQQKPGQPPKLLIYWASTRESGVPDRFSGSGSGTDFTLTISSLQAEDVAVYYCQQHYRTPPTFGQGTKVEIK
Turning to B1, the “Neutralization H5 A/VN/1194/04 pseudovirus, IC50” value in the assay with HA A/VN/1194/04 (H5) is 0.0035 µg/mL. Moreover, the “Neutralization H7 A/ck/FPV Rostock/34 pseudovirus, IC50” value in [1] came out at 0.0093 µg/mL.

B2: FI6 variant 3 (antibody, V domains shown)
VH: QVQLVESGGGVVQPGRSLRLSCAASGFTFSTYAMHWVRQAPGKGLEWVAVISYDANYKYYADSVKGRFTISRDNSKNTLYLQMNSLRAEDTAVYYCAKDSQLRSLLYFEWLSQGYFDYWGQGTLVTVSS
VL: DIVMTQSPDSLAVSLGERATINCKSSQSVTFNYKNYLAWYQQKPGQPPKLLIYWASTRESGVPDRFSGSGSGTDFTLTISSLQAEDVAVYYCQQHYRTPPTFGQGTKVEIK
The term EC50 denotes the concentration needed to bring the measured effect to its halfway point. B2 returned an EC50 in assay [2] of 0.029 µg/mL.

B3: FI6 variant 5 (antibody, V domains shown)
VH: QVQLVQSGGGVVQPGRSLRLSCVASGFTFSTYAMHWVRQAPGRGLEWVAVISYDANYKYYADSVKGRFSISRDNSQNTLHLEMNTLRTEDTALYYCAKDSQLRSLLYFEWLSQGYFEPWGQGTLVTVTS
VL: DIVMTQSPDSLAVSLGERATINCKSSQSVTFNNKNYLAWYQQKPGQPPKLLIYWASTRESGVPDRFSGSGSGTDFTLTISSLQAEDVAVYYCQQHYRTPPTFGQGTKVEIK
Take B3: the “Neutralization H5 A/VN/1194/04 pseudovirus, IC50” value with HA A/VN/1194/04 (H5) is 0.0054 µg/mL. The “Neutralization H7 A/ck/FPV Rostock/34 pseudovirus, IC50” value in assay [1] came to 0.022 µg/mL.

B4: FI6 variant 2 (antibody, V domains shown)
VH: QVQLVQSGGGVVQPGRSLRLSCVASGFTFSTYAMHWVRQAPGRGLEWVAVISYDGNYKYYADSVKGRFSISRDNSNNTLHLEMNTLRTEDTALYYCAKDSQLRSLLYFEWLSQGYFDPWGQGTLVTVTS
VL: DIQMTQSPDSLAVSLGARATINCKSSQSVTFNYKNYLAWYQQKPGQPPKVLIYWASARESGVPDRFSGSGSGTDFTLTISSLQAEDVAVYYCQQHYRTPPTFGQGTKVEIK
For the molecule B4, the EC50 was determined as 0.014 µg/mL in assay [3]; 0.014 µg/mL in assay [4]; 0.09 µg/mL in assay [5]; 0.033 µg/mL in [6]; 0.041 µg/mL in assay [7]; 0.01 µg/mL in assay [8]. In assay [9], the response was half-maximal at 0.033 µg/mL (EC50).

The values above are taken from US20110274702A1 (INSTITUTE FOR RESEARCH IN BIOMEDICINE, published 2011).
